# Test results as given in US20020102533A1 (priority 2000, published 2002).
# Assay: general procedure: Fmoc solid-phase peptide synthesis; Wang resin
# Conditions: TFA
Substance,step yield (coupling step),step yield (late stage modification step)
Boc-Asp(OBu)-Glu(OBu)-Val-Val-Pro—NH—CH(Allyl)CH(OH)CF2CF3,41.9%,
Boc-Asp(Obu-)Glu(OBu)-Val-Val-Pro-AlgCF2CF3,,66.6%
